The record followed here is patent publication US20090143288A1, “Peptide-complement conjugates” (Roche Palo Alto LLC, priority 2007, published 2009).

The Kd is the concentration at which binding is half-saturated.

The target of the assay is biotinylated HR1 peptide Biotin-T-2324 (HIV-1).

B1: Rob 2 (Fusion protein C1qA-T1357) (protein)
chain: MRGSHHHHHHIEGRGARGIPGIKGTKGSPGNIKDQPRPAFSAIRRNPPMGGNVVIFDTVITNQEEPYQNHSGRFVCTVPGYYYFTFQVLSQWEICLSIVSSSRGQVRRSLGFCDTTNKGLFQVVSGGMVLQLQQGDQVWVEKDPKKGHIYQGSEADSVFSGFLIFPSAGGGSGGGSGGGSGGGSGGGSGGGWQEWEQKITALLEQAQIQQEKNEYELQKLDKWASLWEWFG
For B1, the Ka came out at 1.13e+09 M⁻¹ and the equilibrium dissociation constant (Kd) worked out at 0.888 nM.

B2: Rob 1 (Fusion protein T1357-C1qA) (protein)
chain: MRGSHHHHHHAIDVIEGRWQEWEQKITALLEQAQIQQEKNEYELQKLDKWASLWEWFGKGDQGEPGPSGNPGKVGYPGPSGPLGARGIPGIKGTKGSPGNIKDQPRPAFSAIRRNPPMGGNVVIFDTVITNQEEPYQNHSGRFVCTVPGYYYFTFQVLSQWEICLSIVSSSRGQVRRSLGFCDTTNKGLFQVVSGGMVLQLQQGDQVWVEKDPKKGHIYQGSEADSVFSGFLIFPSA
In turn, B2 registered a Ka of 1.85e+08 M⁻¹ and a Kd of 5.41 nM.
